A mixed list of measured activities; the numbers were collected in NIAID ChemDB.

Percent inhibition refers to the dose given; in toxicity tests it is the harm to the cells. MIC50, MIC90 and the like: level of inhibition, or share of isolates inhibited. MIC bound: limit read from a one-dose screen. An empty or dashed field is not shown. Rows are shuffled and stem from different studies. ICn is the concentration giving n% inhibition.

compound,test,agent,strain,target,read by,endpoint,tested at,value
CSc1ccccc1-c1cncc(N2CCN(c3ccncc3)CC2)n1,target,Cytomegalovirus,,UL97 kinase,,IC50,,<100 µM
CCN(CC)CCSc1ccc2ccccc2n1.Cl,culture,Mycobacterium tuberculosis,H37Rv,,,MIC,,>100 µg/mL
COC(=O)Nc1nc2ccc(-c3c(C)oc(C)c3C(=O)O)cc2[nH]1,culture,Mycobacterium tuberculosis,H37Rv,,BACTEC,inhibition,12.5 µg/mL,16%
COc1ccc(Cl)cc1-c1cncc(N2CCN(c3ccncc3)CC2)n1,target,Cytomegalovirus,,UL97 kinase,,inhibition,10 µM,>15%
O=CC(NC(=O)N(CCCl)N=O)C(O)C(O)C(O)CO,culture,Mycobacterium tuberculosis,H37Rv,,BACTEC,inhibition,12.5 µg/mL,15%
C(=C\c1ccccn1)/c1ccccc1,culture,Mycobacterium tuberculosis,H37Rv,,,MIC,,50 µg/mL
COC1=C2CC(C)CC(OC)C(O)C(C)/C=C(\C)C(OC(N)=O)C(OC)/C=C\C=C(/C)C(=O)NC(=C(C=NN3CCOCC3)C1=O)C2=O,culture,Mycobacterium tuberculosis,H37Rv,,BACTEC,inhibition,12.5 µg/mL,16%
CCOC(=O)Nc1ccc(C(=O)OC)c(O)c1,culture,Mycobacterium tuberculosis,H37Rv,,,MIC,,>100 µg/mL
Cc1ccc(N2CCN(c3cncc(-c4cccc5ccccc45)n3)CC2)cc1,target,Cytomegalovirus,,UL97 kinase,,IC50,,<100 µM
CC1(C)CC(N2CCN(C3CC(C)(C)NC(C)(C)C3)CC2)CC(C)(C)N1,culture,Mycobacterium tuberculosis,H37Rv,,resazurin,MIC bound,,>6.25 µg/mL
CN(C)C1CCC(OC(=O)c2ccc(N)cc2)CC1.Cl,culture,Mycobacterium tuberculosis,H37Rv,,,MIC,,>100 µg/mL
Cc1ncc(CO)c(/C=N/NC(=O)c2ccncc2)c1O,culture,Mycobacterium tuberculosis,H37Rv,,BACTEC,MIC bound,,≤128 µg/mL
Oc1ccc(-c2cncc(NCc3cccs3)n2)cc1,target,Cytomegalovirus,,UL97 kinase,,IC50,,<1 µM
O=S(=O)(O)c1cc(O)c2c(O)cc(S(=O)(=O)O)cc2c1,culture,Mycobacterium tuberculosis,H37Rv,,,MIC,,>100 µg/mL
COc1ccc(/C=N/Nc2nnc3c4ccccc4c4ncccc4c3n2)cc1,culture,Mycobacterium tuberculosis,H37Rv,,BACTEC,MIC bound,,>12.5 µg/mL
Cc1cccc(-c2cncc(N3CCN(c4ccc(F)cc4)CC3)n2)c1,target,Cytomegalovirus,,UL97 kinase,,inhibition,10 µM,>15%
C=C1C(=O)[C@@]23CC[C@H]4C(C)(CCC[C@@]4(C)C(=O)OC)[C@@H]2CC[C@]1(O)C3,culture,Mycobacterium tuberculosis,H37Rv,,,MIC,,6.3 µg/mL
O=c1[nH]c(=O)[nH]c(=O)[nH]1,culture,Mycobacterium tuberculosis,H37Rv,,,MIC,,>100 µg/mL
O=C(O)/C=C\C(=O)NNc1ccc([N+](=O)[O-])cc1[N+](=O)[O-],culture,Mycobacterium tuberculosis,H37Rv,,BACTEC,MIC bound,,>12.5 µg/mL
Cc1cccc(-c2cncc(N3CCN(c4cccc(C(F)(F)F)c4)CC3)n2)c1,target,Cytomegalovirus,,UL97 kinase,,inhibition,10 µM,>15%
CCOC(=O)c1ccc(N)c(N)c1,culture,Mycobacterium tuberculosis,H37Rv,,,MIC,,>100 µg/mL
CC(=O)c1ccc(N2CCN(c3cncc(-c4cccc(C)c4C)n3)CC2)cc1,target,Cytomegalovirus,,UL97 kinase,,IC50,,<100 µM
C=CCc1ccc(OC)c(OC)c1,culture,Candida albicans,2938,,turbidity,MIC90,,350 µg/mL
O=C(O)/C=C/c1ccccc1,culture,Mycobacterium tuberculosis,H37Rv,,,MIC,,100 µg/mL
Fc1ccccc1N1CCN(c2cncc(-c3csc4ccccc34)n2)CC1,target,Cytomegalovirus,,UL97 kinase,,IC50,,<100 µM
CCOc1nc(N)c(C(N)=O)cc1C#N,culture,Mycobacterium tuberculosis,H37Rv,,BACTEC,inhibition,12.5 µg/mL,11%
O=[As]([O-])(O)c1ccc(NCCCO)cc1.[Na+],culture,Mycobacterium tuberculosis,H37Rv,,,MIC,,>100 µg/mL
COC(=O)C(=O)C(C(=O)C1=NS(=O)(O)=c2cc(S(N)(=O)=O)c(Cl)cc2=N1)c1nc2ccc(C(=O)c3ccccc3)cc2[nH]c1=O,culture,Mycobacterium tuberculosis,H37Rv,,BACTEC,MIC bound,,>12.5 µg/mL
COc1cccc(N2CCN(c3cncc(-c4ccc(C(F)(F)F)cc4)n3)CC2)c1,target,Cytomegalovirus,,UL97 kinase,,inhibition,1 µM,<50%
O=[N+]([O-])c1ccc(N2c3ccccc3Sc3ccccc32)cc1,culture,Mycobacterium tuberculosis,H37Rv,,,MIC,,>100 µg/mL
COc1c2occc2c(N)c2ccc(=O)oc12,culture,Mycobacterium tuberculosis,H37Rv,,BACTEC,MIC bound,,>12.5 µg/mL
Nc1ccc(C(=O)Nc2ccc3ccccc3c2)cc1,culture,Mycobacterium tuberculosis,H37Rv,,,MIC,,100 µg/mL
Fc1ccc(N2CCCCC2)c(NC(=S)c2ccncc2)c1,host protein,,,PKCbetaII,kinase activity,inhibition,10 µM,13%

3 of the rows above, restated:

compound	test	agent	strain	target	read by	endpoint	tested at	value
C(=C\c1ccccn1)/c1ccccc1	culture	Mycobacterium tuberculosis	H37Rv			MIC		50 µg/mL
Cc1ccc(N2CCN(c3cncc(-c4cccc5ccccc45)n3)CC2)cc1	target	Cytomegalovirus		UL97 kinase		IC50		<100 µM
Oc1ccc(-c2cncc(NCc3cccs3)n2)cc1	target	Cytomegalovirus		UL97 kinase		IC50		<1 µM